Record: PubChem BioAssay AID624099 (ICCB-Longwood, 2012)
In all, the deposit lists about 21,000 reagents; below is an unselected part. In the full data, 497 (2.4%) got an active call. 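Higher z means weaker E2 silencing; only reporter increases were scored, and knock-downs that hurt cell survival may mask genuine repressor factors.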

Purpose: 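Human genes that papillomavirus E2 requires to repress the HPV18 LCR promoter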 (primary screen)
System: human C33A cervical carcinoma cells (HPV-negative) stably expressing BPV1 E2 and an HPV18 LCR luciferase reporter
Knock-down reagent: siRNA pool against human genes, 40 nM
Timing: 72 h
Measured: 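Per-well luciferase luminescence, z-scored on each plate against the plate mean and SD with control wells left out, then averaged across three replicate plates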
Scale: mean z-score and z-score: higher = stronger reporter signal, weaker E2 silencing
Hit rule: 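Hit if mean z-score reaches 2 and two or more of three replicate z-scores also reach 2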

| target | mean z-score | z-score, replicate A | z-score, replicate B | z-score, replicate C | outcome |
| --- | --- | --- | --- | --- | --- |
| ZNF616 | -0.01 | -0.11 | 0.27 | -0.19 | inactive |
| CA3 | -0.57 | -0.92 | -0.11 | -0.67 | inactive |
| LOC728329 (retired record) | 0.08 | 0.18 | 0.13 | -0.09 | inactive |
| ECE1 | -0.66 | -0.35 | -0.91 | -0.72 | inactive |
| HMX2 | -0.93 | -0.94 | -0.84 | -0.99 | inactive |
| FAF1 | -0.64 | -0.87 | -0.52 | -0.55 | inactive |
| BTBD17 | -0.57 | -0.69 | -0.8 | -0.21 | inactive |
| NAGPA | 0.75 | 0.87 | 0.53 | 0.84 | inactive |
| KLC4 | 0.4 | 0.35 | 0.35 | 0.49 | inactive |
| ACSM3 | 1.43 | 1.64 | 1.54 | 1.11 | inactive |
| ZC4H2 | -0.59 | -0.74 | -0.69 | -0.36 | inactive |
| TM4SF5 | 0 | -0.07 | 0.07 | 0 | inactive |
| TMEM98 | -0.21 | -0.18 | -0.36 | -0.09 | inactive |
| NTF4 | -0.62 | -0.44 | -0.66 | -0.76 | inactive |
| C10orf143 | -1.34 | -1.4 | -1.21 | -1.41 | inactive |
| OR10A3 | 0.84 | 0.98 | 0.83 | 0.7 | inactive |
| SPINT1 | 0.46 | 0.51 | 0.59 | 0.27 | inactive |
| EPB41L4A | 0.26 | 0.27 | 0.15 | 0.37 | inactive |
| DIAPH2 | 1.67 | 1.67 | 1.62 | 1.71 | inactive |
| AURKAIP1 | 0.15 | 0.28 | 0.08 | 0.1 | inactive |
| TMBIM4 | 0.87 | 0.91 | 0.71 | 0.98 | inactive |
| STAMBP | -1.26 | -1.34 | -1.24 | -1.2 | inactive |
| LOC391817 (retired record) | -0.63 | -0.97 | -0.29 | -0.62 | inactive |
